Literature values as cited in patent publication US4342772A, “β-Lactam compounds, antibacterial compositions thereof and method of use” (priority 1979, dated 1982).

How the values were obtained:
[1] = tested on: gram-positive and gram-negative organisms; details: in words; "with a few exceptions"; background; cited from earlier work
[2] = tested on: β-lactamase producing bacteria; details: in combination with selected penicillins and cephalosporins; background; cited from earlier work
β-lactamases = details: in words; background; cited from earlier work

CC1(C)S[C@@H]2[C@H](Br)C(=O)N2[C@H]1C(=O)O
Antibacterial activity against most gram-positive and gram-negative organisms [1]: only weak antibacterial activity
Synergy against β-lactamase producing bacteria [2]: act synergistically
Inhibition of a wide range of β-lactamases (β-lactamases): powerful inhibitors
